According to patent US10457946B2, “Methods for overcoming glucocorticoid resistance and for determining glucocorticoid resistance potential in cancer” (St. Jude Children's Research Hospital, Inc., priority 2013, dated 2019):

Legend:
[1] = tested on: NALM-6 cells overexpressing CASP1; assay type: cell-based, human
Experimental: NALM-6 cells overexpressing CASP1 were stably transduced with lentiviral vectors (Sigma-Aldrich, St. Louis, Mo.) containing non-targeting scrambled hairpin (shNT, sequence: […] (SEQ ID NO: 13)) or shRNA hairpins targeting CASP1 (shCASP1, sequence: […] (SEQ ID NO: 14)). The two cell lines were cultured for 48 hours in the presence and absence of LPS/ATP to allow for the activation of CASP1, and subsequently analyzed on Western blot for the expression levels of CASP1 and glucocorticoid receptor (GR) (Panel A). The quantified signal intensities of 90-kDa GR and 20-kDa active CASP1 normalized for the loading control HSP90, are shown in the bar graph (Panel A). […] The sensitivity (LC50) of shCASP1 and shNT cells to prednisolone was determined by MTT assays (Panel B). […] Error bars represent S.E.M; n=4 replicate experiments.
NALM-6 cells overexpressing CASP1 co-transfected with either non-targeting scrambled hairpin (shNT; SEQ ID NO: 13) or shRNA hairpins targeting CASP1 (shCASP1; SEQ ID NO: 14) were stably transduced with lentiviral vectors (Addgene plasmid 25890; Sigma-Aldrich, St. Louis, Mo.) containing a wild-type glucocorticoid receptor (SEQ ID NO: 16) or a glucocorticoid receptor in which both CASP1 cleavage sites had been eliminated (double mutagenized GR, DM-GR (SEQ ID NO: 17)). […] The inset is a western blot depicting recombinant GR protein levels (wild-type, or double mutagenized), in cells at time of MTT drug sensitivity assays.
Leukemia cells were isolated at diagnosis from patient bone marrow aspirates. If the leukemia cell percentage from diagnostic bone marrow samples was less than ninety percent, magnetic activated cell sorting (Miltenyl Biotec, Auburn, Calif.) was performed to further enrich for leukemia cells. If red cell contamination was greater than thirty percent, red blood cell lysis was performed. Cells were centrifuged at 300 g for five minutes and resuspended at a concentration of two million cells per milliliter. […] LC50 values were determined as previously described (Holleman et al., 2004). […]

CASP1 = experiment: Western blot of CASP1 and glucocorticoid receptor (GR) in CASP1 overexpressing NALM-6 cells; assay type: cell-based, human; details: +LPS/ATP, FIG. 9A/9C

Substance: CrmA: cytokine response modifier A, a known inhibitor of CASP1 catalytic activity, expressed by lentiviral transduction
- CC50 ([1]; CASP1 overexpressing NALM-6 cells transduced with the named gene, +LPS/ATP, MTT, mean±S.E.M., read-out: LC50 (sensitivity to glucocorticoid treatment, prednisolone)): 3.2 ± 0.2 µM
- PRED-LC50 compared with control (shNT or GFP) cells ([1]; absence of CASP1 activation (−LPS/ATP)): comparable
- fold reduction in LC50 versus GFP transfected controls ([1]; prednisolone, CASP1 overexpressing NALM-6 cells, +LPS/ATP, t-test p=0.011): 43 fold
- CASP1-induced GR cleavage (CASP1): blocked CASP1 induced GR cleavage
